Here are results for one molecule from ChEMBL document CHEMBL1143047, “Aminoglycoside antibiotic derivatives: preparation and evaluation of toxicity on cochlea and vestibular tissues and antimicrobial activity” (Bioorg Med Chem, 2007).

What all share (format): functional, organism-based
One assay has as its system Staphylococcus aureus. The experiment in a line: Antimicrobial activity against Staphylococcus aureus ATCC 6538 at 15 mg/ml after 24 hrs by micro dilution method. The essentials: (§1)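 Broth microdilution with about 5 × 10^4 CFU/mL per well. Compounds were dissolved in sterile water or in 10% DMSO/water and tested at 15 mg/mL in duplicate. Incubation was 24 h at 35 °C. Growth was scored qualitatively by medium turbidity (growth or no growth) against an inoculated-medium positive control and a medium-only negative control.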

Assay [1] deals with Staphylococcus epidermidis. Put plainly: Antimicrobial activity against Staphylococcus epidermidis ATCC 12228 at 15 mg/ml after 24 hrs by micro dilution method. The essentials:
as §1

For a further assay, the system named is Pseudomonas aeruginosa. The experiment in a line: Antimicrobial activity against Pseudomonas aeruginosa ATCC 27853 at 15 mg/ml after 24 hrs by micro dilution method. An outline of the steps: as §1
A further assay deals with Escherichia coli. The experiment in a line: Antimicrobial activity against Escherichia coli ATCC 25922 at 15 mg/ml after 24 hrs by micro dilution method. An outline of the steps:
as §1

The source made the active and inactive calls. The calls are words filed in the database; no cut-off is given here.

As to `[N-]=[N+]=NC[C@H]1O[C@H](O[C@@H]2[C@@H](O)[C@H](O)[C@@H](N=[N+]=[N-])C[C@H]2N=[N+]=[N-])[C@H](N=[N+]=[N-])[C@@H](O)[C@@H]1O`, the result (in the assay on Staphylococcus aureus; in assay [1]; with Pseudomonas aeruginosa) was Active. In the assay on Escherichia coli, the outcome was inactive.
